Values from PubChem BioAssay AID624099 (ICCB-Longwood, 2012).

Assay: 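Host factors E2 relies on to silence an HPV18 LCR reporter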 (primary screen)
Cell system: human C33A cervical carcinoma cells (HPV-negative) stably expressing BPV1 E2 and an HPV18 LCR luciferase reporter
Knock-down reagent: siRNA pool against human genes, 40 nM
Time to read-out: 72 h
Measurement: 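HPV18 LCR reporter light per well, converted to plate-wise z-scores that exclude control wells, and averaged over triplicate plates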
Direction: mean z-score and z-score: higher = stronger reporter signal, weaker E2 silencing
Active means: 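Mean z ≥ 2 together with z ≥ 2 in two or more of the three replicates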
This is a random part of about 21,000 deposited reagents. 497 of all reagents (2.4%) were called active. 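Higher z means weaker E2 silencing; only reporter increases were scored, and knock-downs that hurt cell survival may mask genuine repressor factors.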 Unmarked entries are inactive. Reagents against one gene are numbered here.

| gene | reagent no. | mean z-score | z-score, replicate A | z-score, replicate B | z-score, replicate C |
| --- | --- | --- | --- | --- | --- |
| VWCE (von Willebrand factor C and EGF domains) | 1 | 0.23 | 0.11 | 0.23 | 0.36 |
| CACUL1 (CDK2 associated cullin domain 1) | 1 | 0.46 | -0.28 | 0.6 | 1.06 |
| ADRA2C (adrenoceptor alpha 2C) | 1 | 2.45 (active) | 2.22 | 2.7 | 2.44 |
| DNAI2 (dynein axonemal intermediate chain 2) | 1 | 1.74 | 1.94 | 1.53 | 1.75 |
| LY6S-AS1 (LY6S antisense RNA 1) | 1 | -0.42 | -0.32 | -0.36 | -0.57 |
| ALPK3 (alpha kinase 3) | 1 | 1.78 | 1.69 | 1.82 | 1.83 |
| RSPH9 (radial spoke head component 9) | 1 | 0.58 | 0.76 | 0.7 | 0.27 |
| EPHX4 (epoxide hydrolase 4) | 1 | 1.12 | 0.99 | 1.25 | 1.13 |
| SCD (stearoyl-CoA desaturase) | 1 | -0.86 | -1.02 | -0.61 | -0.95 |
| RASSF3 (Ras association domain family member 3) | 1 | -0.09 | -0.23 | 0.11 | -0.16 |
| MRPS26 (mitochondrial ribosomal protein S26) | 1 | -0.66 | -1.11 | -0.8 | -0.08 |
| PCSK6 (proprotein convertase subtilisin/kexin type 6) | 1 | -0.54 | -0.15 | -0.73 | -0.74 |
| TUT7 (terminal uridylyl transferase 7) | 1 | -0.31 | -0.02 | -0.45 | -0.45 |
| PTPN7 (protein tyrosine phosphatase non-receptor type 7) | 1 | 0.47 | 0.29 | 0.58 | 0.55 |
| B3GNT7 | 1 | 0.45 | 0.9 | 0.18 | 0.28 |
| GNGT2 (G protein subunit gamma transducin 2) | 1 | 1.55 | 1.87 | 1.27 | 1.52 |
| COX7B2 (cytochrome c oxidase subunit 7B2) | 1 | -0.06 | -0.52 | -0.06 | 0.4 |
| CGREF1 (cell growth regulator with EF-hand domain 1) | 1 | 0.97 | 0.54 | 1.06 | 1.3 |
| MZF1 (myeloid zinc finger 1) | 1 | 1.19 | 0.71 | 1.28 | 1.58 |
| PMS2P1 | 1 | 1.43 | 1.99 | 1.23 | 1.08 |
| OR10A7 (olfactory receptor family 10 subfamily A member 7) | 1 | -0.83 | -1.45 | -0.56 | -0.46 |
| TOR2A (torsin family 2 member A) | 1 | -0.13 | -0.04 | -0.34 | -0.02 |
| IFRD1 (interferon related developmental regulator 1) | 1 | 0.65 | 0.6 | 0.82 | 0.53 |
| RPUSD3 (RNA pseudouridine synthase D3) | 1 | 0.35 | 0.55 | 0.08 | 0.41 |
| FBXO40 (F-box protein 40) | 1 | -0.24 | -0.13 | -0.15 | -0.42 |

Next part, starting with the last 4 of the part before.
| gene | reagent no. | mean z-score | z-score, replicate A | z-score, replicate B | z-score, replicate C |
| --- | --- | --- | --- | --- | --- |
| TOR2A (torsin family 2 member A) | 1 | -0.13 | -0.04 | -0.34 | -0.02 |
| IFRD1 (interferon related developmental regulator 1) | 1 | 0.65 | 0.6 | 0.82 | 0.53 |
| RPUSD3 (RNA pseudouridine synthase D3) | 1 | 0.35 | 0.55 | 0.08 | 0.41 |
| FBXO40 (F-box protein 40) | 1 | -0.24 | -0.13 | -0.15 | -0.42 |
| MRTFA (myocardin related transcription factor A) | 1 | 1.08 | 0.98 | 0.99 | 1.26 |
| LOC286129 (retired record) | 1 | -1.59 | -1.47 | -1.92 | -1.39 |
| FAM8A1 (family with sequence similarity 8 member A1) | 1 | -1.13 | -0.7 | -1.11 | -1.58 |
| CNKSR1 (connector enhancer of kinase suppressor of Ras 1) | 1 | -0.32 | 0.02 | -0.49 | -0.49 |
| EEF1AKMT2 (EEF1A lysine methyltransferase 2) | 1 | 0.89 | 1.06 | 1.03 | 0.58 |
| LOC391542 (retired record) | 1 | -1.47 | -1.2 | -1.89 | -1.32 |
| EEIG1 (estrogen-induced osteoclastogenesis regulator 1) | 1 | 0.3 | 0.38 | 0.33 | 0.21 |
| RPS3AP6 (RPS3A pseudogene 6) | 1 | 0.38 | 0.7 | -0.01 | 0.45 |
| EEF1A2 (eukaryotic translation elongation factor 1 alpha 2) | 1 | 0.92 | 0.83 | 0.77 | 1.15 |
| SIPA1L2 (signal induced proliferation associated 1 like 2) | 1 | 0.03 | 0.23 | -0.09 | -0.06 |
| CYP3A5 (cytochrome P450 family 3 subfamily A member 5) | 1 | -0.19 | -0.11 | -0.37 | -0.08 |
| TAS2R8 (taste 2 receptor member 8) | 1 | 0.03 | -0.07 | 0.2 | -0.03 |
| FABP5P10 (fatty acid binding protein 5 pseudogene 10) | 1 | -1.04 | -0.86 | -1.19 | -1.07 |
| MMP10 (matrix metallopeptidase 10) | 1 | -0.4 | -0.48 | -0.43 | -0.29 |
| REG3G (regenerating family member 3 gamma) | 1 | 2.28 (active) | 2.06 | 2.27 | 2.51 |
| NLGN1 (neuroligin 1) | 1 | -0.86 | -0.81 | -0.89 | -0.89 |
| CETN2 (centrin 2) | 1 | -0.11 | -0.02 | -0.07 | -0.24 |
| NFYB (nuclear transcription factor Y subunit beta) | 1 | 0.83 | 1.05 | 0.86 | 0.58 |
| USP43 (ubiquitin specific peptidase 43) | 1 | -1.58 | -1.94 | -1.55 | -1.25 |
| MYO18A (myosin XVIIIA) | 1 | 0.48 | 0.47 | 0.64 | 0.33 |
| MYO18A (myosin XVIIIA) | 2 | 0.18 | -0.07 | 0.37 | 0.24 |
| ZNF623 (zinc finger protein 623) | 1 | -0.13 | 0.01 | -0.03 | -0.36 |
| LOC389108 (retired record) | 1 | 1.85 | 2.46 | 1.6 | 1.49 |
| ETFRF1 (electron transfer flavoprotein regulatory factor 1) | 1 | 0.3 | 0.34 | 0.3 | 0.27 |
| KY (kyphoscoliosis peptidase) | 1 | -0.54 | -0.4 | -0.78 | -0.43 |
| KRT10 (keratin 10) | 1 | 0.85 | 1.06 | 0.72 | 0.78 |
| MYCBPAP (MYCBP associated protein) | 1 | -0.44 | -0.4 | -0.27 | -0.65 |
| NNAT (neuronatin) | 1 | 0.29 | 0.27 | 0.42 | 0.19 |
| KDM5D (lysine demethylase 5D) | 1 | -1.42 | -1.45 | -1.2 | -1.61 |
| FSCB (fibrous sheath CABYR binding protein) | 1 | 2.6 (active) | 2.19 | 2.49 | 3.12 |
| SOX9-AS1 (SOX9 antisense RNA 1) | 1 | 3.27 (active) | 3.44 | 3.24 | 3.12 |
| AKR1C1 (aldo-keto reductase family 1 member C1) | 1 | -1.1 | -1.05 | -1.05 | -1.18 |
